{
  "sequences": {"note": "Sequences of proteins named here, by UniProt entry; tags and fusion partners are left off. A change or cut given only in a name is not applied to a line headed by its entry.", "UniProt P04191": "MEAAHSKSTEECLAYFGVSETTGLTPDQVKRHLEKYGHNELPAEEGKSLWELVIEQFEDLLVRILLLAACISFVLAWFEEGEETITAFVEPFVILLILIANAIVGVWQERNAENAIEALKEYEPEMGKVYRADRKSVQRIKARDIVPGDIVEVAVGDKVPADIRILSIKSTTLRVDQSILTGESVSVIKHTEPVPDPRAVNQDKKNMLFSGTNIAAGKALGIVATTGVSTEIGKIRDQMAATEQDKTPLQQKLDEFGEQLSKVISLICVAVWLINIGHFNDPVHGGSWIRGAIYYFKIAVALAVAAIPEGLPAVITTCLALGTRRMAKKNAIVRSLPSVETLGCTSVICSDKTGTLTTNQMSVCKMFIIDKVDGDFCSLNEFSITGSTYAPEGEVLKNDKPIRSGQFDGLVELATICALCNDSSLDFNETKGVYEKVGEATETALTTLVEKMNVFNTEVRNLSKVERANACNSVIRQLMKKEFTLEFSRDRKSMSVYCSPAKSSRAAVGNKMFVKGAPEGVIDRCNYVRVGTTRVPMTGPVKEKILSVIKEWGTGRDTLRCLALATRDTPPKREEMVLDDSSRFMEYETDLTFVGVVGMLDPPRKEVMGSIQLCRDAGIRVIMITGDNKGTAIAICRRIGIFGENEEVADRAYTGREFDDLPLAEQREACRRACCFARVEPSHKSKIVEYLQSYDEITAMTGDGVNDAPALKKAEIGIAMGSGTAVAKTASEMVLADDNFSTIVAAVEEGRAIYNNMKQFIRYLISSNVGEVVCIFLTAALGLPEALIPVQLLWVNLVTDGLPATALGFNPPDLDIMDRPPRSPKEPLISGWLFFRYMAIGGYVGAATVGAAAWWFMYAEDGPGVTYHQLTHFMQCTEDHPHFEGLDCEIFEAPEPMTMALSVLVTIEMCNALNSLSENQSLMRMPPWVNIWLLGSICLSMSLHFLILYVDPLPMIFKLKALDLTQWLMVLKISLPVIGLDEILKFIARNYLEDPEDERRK"},
  "source": "patent US9688856B2",
  "about": "“Biologically active silicic acid” (dated 2017)",
  "origin": "cited, not measured here",
  "target": "Ca-ATPase pump of the endoplasmic reticulum (SERCA) (Oryctolagus cuniculus, UniProt P04191)",
  "details": "prior art; cited from earlier work",
  "data": [
    {"compound": "CC[C@H](C)[C@H](NC(=O)CN)C(=O)NCC(=O)N[C@@H](C)C(=O)N[C@H](C(=O)N[C@@H](CC(C)C)C(=O)N[C@@H](CCCCN)C(=O)N[C@H](C(=O)N[C@@H](CC(C)C)C(=O)N[C@H](C(=O)N[C@H](C(=O)NCC(=O)N[C@@H](CC(C)C)C(=O)N1CCC[C@H]1C(=O)N[C@@H](C)C(=O)N[C@@H](CC(C)C)C(=O)N[C@H](C(=O)N[C@@H](CO)C(=O)N[C@@H](Cc1c[nH]c2ccccc12)C(=O)N[C@H](C(=O)N[C@@H](CCCCN)C(=O)N[C@@H](CCCNC(=N)N)C(=O)N[C@@H](CCCCN)C(=O)N[C@@H](CCCNC(=N)N)C(=O)N[C@@H](CCC(N)=O)C(=O)N[C@@H](CCC(N)=O)C(N)=O)[C@@H](C)CC)[C@@H](C)CC)[C@@H](C)O)[C@@H](C)O)C(C)C)C(C)C", "values": [
      {"measurement": "SERCA inhibition potency range of previous art inhibitors", "result": "micromolar (μM) range"}
    ]}
  ]
}
